## PSTVd loop 6 mutant pool in Nicotiana benthamiana

Source: Wu et al. 2024 (doi:10.1371/journal.ppat.1012142), supplementary data.

Region: loop 6 of PSTVd (intermediate strain), upper and lower strand joined, each 5' to 3', the first 5 letters being the upper strand, closing pairs included. Wild type: UGACCGCGAG. Varied positions (N): UNNNCGNNNG.

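A pool of all variants was put on leaves of three Nicotiana benthamiana plants. Samples came from the inoculated region at 5 days, the leaf margin at 10 and upper systemic leaves at 12.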

Numbers give reads per thousand; 0 = not seen among the reads, higher = more abundant. Each site shows the three plants. "Pool" is the share in the plasmid pool used as inoculum, on the same scale. The inoculated region was read from the minus strand, the other sites from the plus strand. Wild type was 20.7 per thousand in the pool and the most common sequence in every sample (inoculated region 195, 198, 203; leaf margin 629, 591, 734; systemic leaves 942, 870, 868).

sequence,pool,inoculated region,leaf margin,systemic leaves
UCAGCGGGCG,0.157,0.712 0.719 0.535,0 0.126 0.116,0 0 0
UUGGCGCAUG,0.275,0.0695 0.0539 0.0553,0 0 0.0232,0 0 0
UAUUCGACCG,0.222,0.0348 0.144 0.0738,0 0 0,0 0 0
UUGUCGCCAG,0.261,0.0521 0.0719 0.0738,0 0 0.0232,0 0 0
UACCCGCAAG,0.196,0.608 0.719 0.645,0 0.0504 0.116,0 0.0202 0
UAAACGCUGG,0.105,0.191 0.0719 0.0738,0 0 0,0 0 0
UGUUCGCGGG,0.196,0.139 0.0359 0.0184,0 0 0.0232,0 0 0
UCAACGGAGG,0.170,0.156 0.108 0.0553,0 0 0.0232,0 0.0606 0
UCAACGCGAU,0.0131,0.0348 0.0539 0.129,0 0 0.0232,0 0 0
UCGUCGUCCG,0.209,0.104 0.0539 0.184,0 0 0,0 0 0
UCGUCGGCAG,0.105,0.104 0.0719 0.0553,0 0 0,0 0 0.0205
UCCCCGAAAG,0.209,0.0869 0.0180 0.0922,0 0.0252 0,0 0 0
UAGGCGCCGG,0.183,0.122 0.0539 0.0922,0 0 0,0 0 0
UUAUCGACUG,0.379,0.156 0.0898 0.129,0 0 0,0 0 0
UCUUCGCCAG,0.275,0.0869 0.126 0.166,0 0 0.0232,0 0 0
UAUCCGUCCG,0.170,0.0521 0.0898 0.111,0 0 0,0 0 0
UCUUCGCCGG,0.261,0.104 0.108 0.0922,0 0 0.0232,0 0 0
UCCCCGCAAG,0.222,0.504 0.557 0.572,0 0.0252 0.139,0 0.0808 0.103
UGUUCGCUUG,0.314,0.209 0.144 0.0922,0 0 0,0 0 0
UUUUCGAACG,0.235,0.122 0.0180 0.0738,0 0 0,0 0 0
UUAACGAUGG,0.314,0.0348 0.126 0.129,0.0276 0 0,0 0 0
UAGGCGGUGG,0.248,0.139 0.108 0.111,0 0 0,0 0 0
UUCUCGCUGG,0.196,0.156 0.0719 0.0922,0 0 0,0 0 0
UCGACGCAAG,0.144,0.104 0.180 0.129,0 0 0,0 0 0
UAGCCGGGAG,0.301,0.139 0.0898 0.0369,0.0552 0.0757 0,0 0 0
UCGACGGGCG,0.157,0.817 0.808 0.498,0.0276 0 0.0696,0 0 0
UUGACGACGG,0.275,0.0869 0.0180 0.0738,0 0 0.0464,0 0 0
UACCCGUAGG,0.235,0.104 0.108 0.0369,0 0 0.0232,0 0 0
UGGCCGCCAG,0.209,0.539 0.683 0.535,0.0552 0.0757 0.0696,0 0 0
UCUACGUCCG,0.170,0.0521 0.0898 0.129,0.0276 0 0,0 0 0
UUAGCGUAAG,0.105,0.608 0.736 0.590,0.110 0 0,0.0359 0.0404 0.0410
UACCCGGAAG,0.196,0.139 0.0898 0.0738,0 0 0,0 0 0
UUGCCGACUG,0.248,0.0695 0.108 0.0738,0.0276 0 0,0 0 0
UAGACGGGAG,0.144,0.678 0.611 0.369,0.166 0.0757 0.0696,0 0 0
UGCGCGAGUG,0.105,0.104 0.108 0.0738,0 0 0.0232,0 0 0
UCUACGUAAG,0.157,0.0869 0.108 0.0369,0.0276 0 0,0 0 0
UUGACGAACG,0.327,0.0695 0.0719 0.0369,0.0276 0 0,0 0 0
UAUCCGACGG,0.209,0.0348 0.0898 0.0184,0 0 0.0696,0 0 0
UAAACGCCAG,0.131,0.556 0.431 0.553,0.0552 0.0757 0.0696,0.0180 0.0404 0.0205
CGACCGUUCG,0.0131,0 0.0359 0,0 0 0,0 0 0
UCAUCGUUGG,0.222,0.104 0.0898 0.148,0 0 0,0 0 0
UUGUCGAUCG,0.340,0.104 0.0719 0.0553,0 0 0,0 0 0
UGCUCGUGGG,0.209,0.139 0.0719 0.0369,0 0 0,0 0 0
UUAGCGAGGG,0.261,0.0869 0.108 0.0553,0 0 0.0232,0 0 0
UACUCGCAUG,0.144,0.122 0.0898 0.0369,0 0 0,0 0 0
UUCACGGCAG,0.183,0.869 0.736 0.553,0.110 0.126 0,0 0 0
UUAACGAGGG,0.170,0.0348 0.0898 0.0738,0 0 0,0 0 0
UGCACGGAUG,0.222,0.0521 0.108 0.0738,0 0 0,0 0 0.0205
UGGCCGGGAG,0.170,0.104 0.162 0.240,0.0552 0 0.0696,0 0 0
UCGGCGCCAG,0.196,0.0869 0.0359 0.0553,0 0 0,0 0 0
UUAUCGGAUG,0.327,0.209 0.126 0.0553,0.0276 0 0,0 0 0
UUGUCGUCAG,0.301,0.0174 0.0898 0.0738,0 0 0,0 0 0
UUGACGGCCG,0.235,0.191 0.0719 0.0738,0 0 0.0464,0 0 0.0205
UUAUCGUGUG,0.366,0.122 0.0898 0.0922,0 0 0,0 0 0
UCUGCGUUCG,0.379,0.104 0.0719 0.0553,0 0 0.0232,0 0 0
UUGCCGUUGG,0.248,0.0695 0.0719 0.0553,0 0 0,0 0 0
UACGCGACGG,0.183,0.104 0.0539 0.0922,0 0 0,0 0 0
UAAGCGAAGG,0.183,0.0521 0.108 0.0184,0 0 0,0 0 0
UUCGCGAGCG,0.353,0.0695 0.0719 0.0553,0 0 0,0 0 0.0205
UCGCCGGUGG,0.248,0.122 0.0719 0.129,0 0 0,0 0 0
UAACCGUGAG,0.196,0.782 0.683 0.461,0.0552 0.202 0.0696,0 0 0
UUCACGUCAG,0.379,0.0348 0.126 0.111,0 0 0,0 0 0
UGCGCGUGUG,0.275,0.0869 0.126 0.0553,0 0 0.0232,0 0 0
UCCCCGUAGG,0.379,0.174 0.108 0.0922,0 0 0.0464,0 0 0
UCAGCGGCCG,0.144,0.139 0.0719 0.0738,0 0 0.0232,0 0 0
UAUGCGCUCG,0.222,0.0695 0.0719 0.0553,0 0 0,0 0 0
UCGCCGACUG,0.327,0.0348 0.0719 0.148,0 0 0,0 0 0
UUGGCGGAUG,0.431,0.104 0.0539 0.0922,0 0 0.0464,0 0 0
UAACCGGUGG,0.196,0.0521 0.0359 0.111,0 0 0.0232,0 0 0
UCAACGUCCG,0.209,0.0695 0.0898 0.129,0.0276 0 0,0 0 0
UAACCGGCAG,0.261,0.0348 0.0719 0.129,0 0 0,0 0 0
UCGCCGCUAG,0.144,0.139 0.0180 0.111,0 0 0,0 0 0

Extract of 8 entries:

sequence,pool,inoculated region,leaf margin,systemic leaves
UAACCGGCAG,0.261,0.0348 0.0719 0.129,0 0 0,0 0 0
UUAGCGUAAG,0.105,0.608 0.736 0.590,0.110 0 0,0.0359 0.0404 0.0410
UCAACGUCCG,0.209,0.0695 0.0898 0.129,0.0276 0 0,0 0 0
UUAUCGGAUG,0.327,0.209 0.126 0.0553,0.0276 0 0,0 0 0
UACCCGGAAG,0.196,0.139 0.0898 0.0738,0 0 0,0 0 0
UCAGCGGCCG,0.144,0.139 0.0719 0.0738,0 0 0.0232,0 0 0
UCGUCGGCAG,0.105,0.104 0.0719 0.0553,0 0 0,0 0 0.0205
UGCUCGUGGG,0.209,0.139 0.0719 0.0369,0 0 0,0 0 0

Sequences that differ at fixed positions probably stem from PCR or sequencing errors, and defective variants can be carried along by functional ones. With 36,220-57,551 reads a sample, very low values are single reads.